Measured values as given in PMC6778150 (Scientific Reports, 2019).

Assay: peptide made by a vendor
Conditions: whole synthesis, 220 nm, trifluoroacetate salt

PEPTIDE1{[Abz].R.S.V.I.[Lys(Dnp)]}$$$$V2.0
final HPLC purity: 98.66% | final HPLC purity (HPLC, C18, linear gradient): over 98%

HELM strings list residues between dots; [ac] is acetyl, [am] amide, other brackets name non-standard units.
